Reference: US9517230B2, “Small molecule RNase inhibitors and methods of use” (UNIVERSITY OF ROCHESTER, priority 2011, dated 2016)

Amino acid sequences for entries named in this document (tags omitted).
UniProt P0A0H5, whole entry: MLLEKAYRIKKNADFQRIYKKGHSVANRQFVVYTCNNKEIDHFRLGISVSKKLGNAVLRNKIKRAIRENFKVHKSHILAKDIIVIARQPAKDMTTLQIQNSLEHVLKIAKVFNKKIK

What was measured:
S. aureus RnpA = S. aureus RnpA (Staphylococcus aureus, UniProt P0A0H5); experiment: RnpA-mediated RNA (spa mRNA) degradation inhibitory titration assay; assay type: biochemical; conditions: read-out: apparent IC50; 1 pmol spa mRNA, 20 pmol RnpA, one hour at 37° C., agarose gel
Method: Specifically, members of the ActiProbe-25K and Natural Product libraries (29,940 compounds total; TimTec Inc.; Newark, Del.) were screened for small molecule inhibitors of S. aureus RnpA mediated total bacterial RNA degradation. All reactions (50 μl) were performed in 96-well format and contained 20 pmol RnpA, 200 ng S. aureus total RNA, and ˜5 μM of each compound in 1× reaction buffer (2 mM NaCl, 2 mM MgCl2, 50 mM Tris-HCl, pH 6.0). Mixtures were incubated at 37° C. for 20 min at which time Quant-iT RiboGreen® (100 μl; Invitrogen) was added to quantify the amount of RNA substrate remaining. Percent enzyme inhibition was calculated as remaining substrate/starting substrate*100. For inhibitory titration assays, 1 pmol of spa mRNA was incubated with 20 pmol RnpA alone (positive control) or in the presence of one of four compounds for one hour at 37° C. The compounds included RNPA-2000 (labeled in FIG. 4 as ST003531) in increasing amounts (0, 2.5, 5, 10, 12.5, 15, 17.5, and 20 μM); RNPA-3000 (labeled in FIG. 4 as ST0006630) in increasing amounts (0, 2.5, 5, 10, 12.5, 15, 20, and 25 μM); ST040225 in increasing amounts (0, 25, 50, 100, 200, 400, 800, and 1000 μM); and ST025201 (0, 1, 2.5, 5, 10, 25, and 50 μM). Following this, 20 μl of each reaction mixture were subjected to electrophoresis in a 1.2% formaldehyde-containing agarose gel and visualized by ethidium bromide staining.

MRSA = experiment: Antimicrobial susceptibility testing, broth microdilution (CLSI); assay type: cell-based, Staphylococcus aureus; conditions: 18 hr at 37° C.
Excerpt: In some examples, compounds can be further assayed using the Mueller Hinton (MH) broth antibacterial assay as specified by the Clinical and Laboratory Standards Institute MIC broth microdilution protocol (see Methods for Dilution Antimicrobial Susceptibility Tests for Bacteria That Grow Aerobically; Approved Standard, In The Clinical and Laboratory Standards Institute (CLSI, formerly NCCLS), 7th ed., January 2006, 26 (2), M7-A7; see also Performance Standards for Antimicrobial Susceptibility Testing; Eighteenth Informational Supplement, In The Clinical and Laboratory Standards Institute (CLSI, formerly NCCLS), January 2008, 28 (1), M100-S18).
In vitro activities of RNPA-2000 (labeled in FIG. 4 as ST003531), RNPA-3000 (labeled in FIG. 4 as ST0006630), ST040225, and ST025201 against bacteria were determined by the broth microdilution method according to the Clinical and Laboratory Standards Institute (CLSI) guidelines using cation adjusted Mueller-Hinton broth or MH broth supplemented with 5% lysed horse blood (for testing Streptococcus spp.). Microtiter plates containing serial dilutions of the compounds 1000 (0, 4, 8, 16, 32, 64, and 128 μg/ml) were inoculated with 10^5 colony forming units (CFU)/ml and incubated for 18 hr at 37° C.

O=C1NC(=S)N(c2ccc(Cl)cc2)C(=O)C1=Cc1ccc(-c2ccccc2C(=O)O)o1
IC50 (S. aureus RnpA): 5 to 10 µM | antimicrobial activity against MRSA (in words) (MRSA): exhibits antimicrobial effects
